{"sequences": {"note": "The chains behind the UniProt entries cited, without tags or fusion partners.", "UniProt P0A9M0, whole entry, looked up": "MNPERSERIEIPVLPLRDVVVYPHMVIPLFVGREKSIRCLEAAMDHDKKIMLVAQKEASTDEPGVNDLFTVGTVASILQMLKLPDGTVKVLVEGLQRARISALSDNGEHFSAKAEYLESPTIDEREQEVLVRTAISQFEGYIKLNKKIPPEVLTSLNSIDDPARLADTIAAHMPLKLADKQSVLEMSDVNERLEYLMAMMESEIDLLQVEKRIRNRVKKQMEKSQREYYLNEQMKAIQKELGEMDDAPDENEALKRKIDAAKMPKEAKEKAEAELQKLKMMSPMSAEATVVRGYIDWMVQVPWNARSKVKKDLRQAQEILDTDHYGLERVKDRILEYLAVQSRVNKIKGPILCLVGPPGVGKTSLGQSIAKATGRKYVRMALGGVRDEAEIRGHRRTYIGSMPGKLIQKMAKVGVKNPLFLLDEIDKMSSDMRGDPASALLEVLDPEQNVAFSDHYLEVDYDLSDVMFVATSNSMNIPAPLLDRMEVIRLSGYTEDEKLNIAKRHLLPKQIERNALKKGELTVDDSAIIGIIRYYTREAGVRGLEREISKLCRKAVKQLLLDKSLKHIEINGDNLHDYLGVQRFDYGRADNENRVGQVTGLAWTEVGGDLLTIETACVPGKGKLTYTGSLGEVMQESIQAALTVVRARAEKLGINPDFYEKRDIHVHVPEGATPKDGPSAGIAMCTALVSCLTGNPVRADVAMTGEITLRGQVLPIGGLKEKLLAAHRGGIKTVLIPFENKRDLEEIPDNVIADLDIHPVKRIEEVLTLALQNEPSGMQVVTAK"}, "source": "PubChem BioAssay AID602123", "about": "(The Scripps Research Institute Molecular Screening Center, 2011)", "note": "The entries are a selection whose mix differs from that of the whole data set. The source made the active and inactive calls. Cut-off read from the data, not from the text of the source: active = inhibition above about 13% (passing the limit was not always enough); inactive = the rest.", "data": [{"target": "Lon protease (Escherichia coli (strain K12)) (UniProt P0A9M0)", "assay": "E. coli eLon protease inhibition – biochemical, fluorescence polarization, primary screen (AID 602123);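 note: 0% = enzyme with probe and DMSO and 100% = no enzyme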", "conditions": "purified E. coli Lon protease, at 7.94 µM, hits give high values", "values": [{"smiles": "COc1ccc(N/C(=N/P(=O)(N2CCOCC2)N2CCOCC2)N2CCOCC2)cc1", "inhibition": "inactive: 6.99%"}, {"smiles": "O=[N+]([O-])c1cc(Oc2ccc([N+](=O)[O-])cc2C(F)(F)F)cc([N+](=O)[O-])c1", "inhibition": "inactive: -9.93%"}, {"smiles": "COc1cc(I)ccc1[As](=O)(O)O", "inhibition": "inactive: 2.09%"}, {"smiles": "COc1ccc2nc(NP(=O)(c3ccccc3)c3ccccc3)sc2c1", "inhibition": "inactive: 5.44%"}, {"smiles": "O=P1(N(CCCl)CCCl)Nc2ccccc2N1", "inhibition": "inactive: -2.74%"}, {"smiles": "O=P1(N(CCCl)CCCl)OCCCN1CCCl", "note": "(centres undefined)", "inhibition": "inactive: -9.5%"}, {"smiles": "Cc1cc(=O)[nH]c(N[N+](=O)[O-])n1", "inhibition": "inactive: -1.74%"}, {"smiles": "O=C(OC1CN2CCC1CC2)C12CC3CC(CC(C3)C1)C2", "note": "(centres undefined)", "inhibition": "inactive: -7.16%"}, {"smiles": "Cc1c2c(nc3ccccc13)SC(C(Cl)Cl)C2", "note": "(centres undefined)", "inhibition": "inactive: 1.11%"}, {"smiles": "O=[N+]([O-])c1cc([N+](=O)[O-])c(-c2ccn[nH]2)s1", "inhibition": "inactive: 2.02%"}, {"smiles": "O=C(OC1CN2CCC1CC2)c1cccc2[nH]cnc12", "note": "(centres undefined)", "inhibition": "inactive: -1.21%"}, {"smiles": "CCN(CC)C(=S)SC(NC=O)C(Cl)(Cl)Cl", "note": "(centres undefined)", "inhibition": "inactive: -10.4%"}, {"smiles": "CC(C)NC(=O)NP(=O)(Oc1ccccc1)Oc1ccccc1", "inhibition": "inactive: 1%"}, {"smiles": "CC(C)c1ccc(OP(=O)(Nc2ccccn2)Oc2ccccc2F)cc1", "note": "(centres undefined)", "inhibition": "inactive: -4.64%"}, {"smiles": "COC(=O)C1(C)COP(=O)(N2CCCCCC2)OC1", "note": "(centres undefined)", "inhibition": "inactive: -10.8%"}, {"smiles": "ClCCSc1nnc(-c2cccnc2)o1", "inhibition": "inactive: -8.96%"}, {"smiles": "Cc1ccc2nc3c(c(C)c2c1)CC(C(Cl)Cl)S3", "note": "(centres undefined)", "inhibition": "inactive: -0.46%"}, {"smiles": "[N-]=[N+]=NC1CCCCC1NC(=O)c1cc([N+](=O)[O-])cc([N+](=O)[O-])c1", "note": "(centres undefined)", "inhibition": "inactive: -1.02%"}, {"smiles": "Cc1ccc(OP(=O)(Nc2ccc([N+](=O)[O-])cn2)Oc2ccc(C)cc2)cc1", "inhibition": "inactive: -7.33%"}, {"smiles": "COc1cc(C(=O)NCC2(N3CCOCC3)CCCCC2)ccc1OCC(C)C", "inhibition": "inactive: 3.7%"}, {"smiles": "O=[N+]([O-])c1ccc(-c2cc([N+](=O)[O-])c(O)c([N+](=O)[O-])c2)cc1", "inhibition": "inactive: -18.4%"}, {"smiles": "C[As](=O)(O)c1cccc(C(=O)O)c1", "inhibition": "inactive: -1.62%"}, {"smiles": "O=[As](O)(c1ccc(O)cc1)c1ccccc1O", "inhibition": "inactive: -2.5%"}, {"smiles": "O=[N+]([O-])c1ccc(Nc2ccc(Oc3ccc([N+](=O)[O-])cc3[N+](=O)[O-])cc2)c([N+](=O)[O-])c1", "inhibition": "inactive: 0.36%"}, {"smiles": "O=P(Nc1ccccn1)(c1cccc2ccccc12)c1cccc2ccccc12", "inhibition": "inactive: -6.05%"}, {"smiles": "Cc1cc(SC(NC=O)C(Cl)(Cl)Cl)ncn1", "note": "(centres undefined)", "inhibition": "inactive: -4.83%"}, {"smiles": "CCOC(=O)Nc1cccc([As](=O)(O)O)c1", "inhibition": "inactive: -3.08%"}, {"smiles": "Cc1cc(SC(NC(=O)c2ccccc2)C(Cl)(Cl)Cl)nc(C(C)C)n1", "note": "(centres undefined)", "inhibition": "inactive: -3.39%"}, {"smiles": "CCCCOc1ccc(C(=O)NCC2(N3CCCCC3)CCCCC2)cc1OC", "inhibition": "inactive: 4.22%"}, {"smiles": "COP(=O)(OC)N1CC1c1ccccc1", "note": "(centres undefined)", "inhibition": "inactive: -1.44%"}, {"smiles": "CC1CCNP(=O)(N(CCCl)CCCl)O1", "note": "(centres undefined)", "inhibition": "inactive: 2.37%"}, {"smiles": "CCOC(=O)Nc1ccc([As](=O)(O)O)c(O)c1", "inhibition": "inactive: -2.15%"}, {"smiles": "O=C(O)C(O)c1ccc(N(CCCl)CCCl)cc1", "note": "(centres undefined)", "inhibition": "inactive: -1.74%"}, {"smiles": "CCC(C)N(CC(C)C)C(=S)SC(NC(C)=O)C(Cl)(Cl)Cl", "note": "(centres undefined)", "inhibition": "inactive: -0.35%"}, {"smiles": "CCOC(=O)c1ccc(NC(=O)C(C)(CCl)SC)cc1", "note": "(centres undefined)", "inhibition": "inactive: 7.65%"}, {"smiles": "CSc1ccc(Nc2c([N+](=O)[O-])cc([N+](=O)[O-])cc2[N+](=O)[O-])cc1", "inhibition": "inactive: 18.9%"}, {"smiles": "O=C(OC1CN2CCC1CC2)c1cccc([N+](=O)[O-])c1", "note": "(centres undefined)", "inhibition": "inactive: 5.53%"}, {"smiles": "O=C(Nc1ccncc1[N+](=O)[O-])c1ccc([N+](=O)[O-])cc1[N+](=O)[O-]", "inhibition": "inactive: 7.13%"}, {"smiles": "O=C(COc1ccccc1)OC1CN2CCC1CC2", "note": "(centres undefined)", "inhibition": "inactive: -0.26%"}, {"smiles": "O=C(O)C(=O)c1ccc(N(CCCl)CCCl)cc1", "inhibition": "inactive: -12.8%"}, {"smiles": "COC(=O)C1(C)COP(=O)(N2CCCC2)OC1", "note": "(centres undefined)", "inhibition": "inactive: 13.8%"}, {"smiles": "COP1(=S)c2c(C)nn(CCC#N)c2N=C(c2ccc(F)cc2)N1C", "note": "(centres undefined)", "inhibition": "inactive: 3.56%"}, {"smiles": "CC1(CBr)Cn2c(nc3ccccc3c2=O)S1", "note": "(centres undefined)", "inhibition": "inactive: -3.02%"}, {"smiles": "CC(C)/C=N\\N=C(\\N)N[N+](=O)[O-]", "inhibition": "inactive: 6.6%"}, {"smiles": "CN(C(=O)Cc1ccc(Cl)c(Cl)c1)[C@@H]1CCCC[C@H]1N1CCCC1", "inhibition": "inactive: -0.27%"}, {"smiles": "COc1ccccc1CNC(=O)COC(=O)C(O)(c1ccccc1)c1ccccc1", "inhibition": "inactive: -2.47%"}, {"smiles": "CC(C)(C)C(=O)NC(Sc1ncccn1)C(Cl)(Cl)Cl", "note": "(centres undefined)", "inhibition": "inactive: 0.08%"}, {"smiles": "O=P1(N(CCCl)CCCl)NCCC(C(F)(F)F)O1", "note": "(centres undefined)", "inhibition": "inactive: -1.85%"}, {"smiles": "Clc1n[nH]nc1-c1nn[nH][15n]1", "inhibition": "inactive: -4.59%"}, {"smiles": "CN(CCCl)Cc1cc(Cl)c(NC2=NCCN2)c(Cl)c1", "inhibition": "inactive: -6.49%"}, {"smiles": "CCOP(=O)(Nc1ccc(C)cn1)OCC", "inhibition": "inactive: 3.36%"}, {"smiles": "CCOP(=O)(NC(=NC(C)c1ccccc1)NC(C)c1ccccc1)OCC", "note": "(centres undefined)", "inhibition": "inactive: -5.49%"}, {"smiles": "O=P1(Nc2ccccn2)COc2ccccc2OC1", "inhibition": "inactive: 5.42%"}, {"smiles": "CCC1=CC2Cc3nc4ccc(Cl)cc4c(N)c3C(C1)C2", "note": "(centres undefined)", "inhibition": "inactive: 2.68%"}, {"smiles": "O=P1(Nc2ccc(Br)cn2)COc2ccccc2OC1", "inhibition": "inactive: -4.21%"}, {"smiles": "NS(=O)(=O)c1cccc(NC(=O)COC(=O)C(O)(c2ccccc2)c2ccccc2)c1", "inhibition": "inactive: -3.26%"}, {"smiles": "O=[As](O)(c1cccs1)c1cccs1", "inhibition": "inactive: -6.81%"}, {"smiles": "Cc1ccc(OCC(=O)OC2CN3CCC2CC3)cc1", "note": "(centres undefined)", "inhibition": "inactive: -8.25%"}, {"smiles": "Nc1cccc([As](=O)(O)c2ccccc2)c1", "inhibition": "inactive: -2.3%"}, {"smiles": "O=P1(Nc2ncccn2)COc2ccccc2OC1", "inhibition": "inactive: -4.07%"}, {"smiles": "Cc1ccc(S(=O)(=O)N(CCCN)CCCc2c(C)nc(N)[nH]c2=O)cc1", "inhibition": "inactive: -0.24%"}, {"smiles": "CCCC1OP(=O)(Nc2ccccc2)OCC1CC", "note": "(centres undefined)", "inhibition": "inactive: -4.99%"}, {"smiles": "O=C(/C=C/c1ccccc1)OC1CN2CCC1CC2", "note": "(centres undefined)", "inhibition": "inactive: 2.36%"}, {"smiles": "CN(C)C1(CNC(=O)c2ccc(S(C)(=O)=O)cc2)CCCCC1", "inhibition": "inactive: -6.11%"}, {"smiles": "CC1CCC(C(C)C)C(OP(=O)(Nc2ccccn2)c2ccccc2)C1", "note": "(centres undefined)", "inhibition": "inactive: -0.78%"}, {"smiles": "Cc1ccc(C(=O)OC2CN3CCC2CC3)cc1", "note": "(centres undefined)", "inhibition": "inactive: 2.52%"}, {"smiles": "Cc1nn(-c2ccccc2)c2c1P(=O)(N1CCOCC1)N(C)C(c1ccccc1)=N2", "note": "(centres undefined)", "inhibition": "inactive: -21.1%"}, {"smiles": "CN(C(=O)Cc1ccc(Cl)c(Cl)c1)[C@H]1CC[C@@]2(CCCO2)C[C@@H]1N1CCCC1", "inhibition": "inactive: -2.19%"}, {"smiles": "CN(C)C(=O)c1cc([N+](=O)[O-])cc2c1-c1c(cc([N+](=O)[O-])cc1[N+](=O)[O-])C2=O", "inhibition": "inactive: 11%"}, {"smiles": "O=[N+]([O-])c1ccc2c(c1)nnn2O", "inhibition": "inactive: 1.16%"}, {"smiles": "CN(C(=O)Cc1ccccc1)[C@@H]1CC[C@]2(CCCO2)C[C@H]1N1CCCC1", "inhibition": "inactive: -4.98%"}, {"smiles": "CCOP1(=S)c2c(C)nn(CCC#N)c2N=C(c2ccc(F)cc2)N1C", "note": "(centres undefined)", "inhibition": "inactive: -11.7%"}, {"smiles": "N#CCCN(C(=O)COC(=O)C(O)(c1ccccc1)c1ccccc1)c1ccc(F)cc1", "inhibition": "inactive: -3.35%"}, {"smiles": "NC(=O)Nc1ccc([As](=O)(O)O)cc1", "inhibition": "inactive: -20.4%"}, {"smiles": "Nc1ccccc1[As](=O)(O)c1ccccc1", "inhibition": "inactive: -2.84%"}, {"smiles": "O=C(O)COc1ccc([As](=O)(O)O)cc1[N+](=O)[O-]", "inhibition": "inactive: 3.17%"}, {"smiles": "CS(=O)(=O)c1cc([N+](=O)[O-])c2no[n+]([O-])c2c1", "inhibition": "inactive: 13.2%"}, {"smiles": "O=P(Nc1nccs1)(c1ccccc1)c1nc2ccccc2s1", "note": "(centres undefined)", "inhibition": "inactive: -4.05%"}, {"smiles": "O=P(Nc1nccs1)(Oc1ccccc1)Oc1ccccc1", "inhibition": "inactive: -7.04%"}, {"smiles": "CCOP1(=S)c2c(C)nn(CCC#N)c2N=C(c2ccccc2F)N1C", "note": "(centres undefined)", "inhibition": "inactive: -9.09%"}, {"smiles": "CCOP(=O)(Nc1cccc2ccccc12)OCC", "inhibition": "inactive: 5.43%"}, {"smiles": "COc1cc(C2NCCC3(OCCO3)C2(C)C)cc(OC)c1OC", "note": "(centres undefined)", "inhibition": "inactive: -1.35%"}, {"smiles": "CCCOP(=S)(Nc1nc(N)cc(=O)[nH]1)OCCC", "inhibition": "inactive: 3.27%"}, {"smiles": "Cc1ccc(NCCc2c([N+](=O)[O-])cc([N+](=O)[O-])cc2[N+](=O)[O-])cc1", "inhibition": "inactive: 3.01%"}, {"smiles": "O=[As](O)(c1cccc(O)c1)c1cccc(O)c1", "inhibition": "inactive: -7.15%"}, {"smiles": "Cc1cccc(OCC(=O)OC2CN3CCC2CC3)c1", "note": "(centres undefined)", "inhibition": "inactive: 1.85%"}, {"smiles": "CS(=O)(=O)c1ccc(Cl)c(NC(=O)COC(=O)C(O)(c2ccccc2)c2ccccc2)c1", "inhibition": "inactive: -2.18%"}, {"smiles": "COc1cc(C(=O)NCC2(N3CCOCC3)CCCCC2)cc(Cl)c1OC(C)C", "inhibition": "inactive: -7.91%"}, {"smiles": "O=[As](O)(O)c1cccnc1", "inhibition": "inactive: 3.86%"}, {"smiles": "O=C(OC1CN2CCC1CC2)c1ccc(Cl)cc1", "note": "(centres undefined)", "inhibition": "inactive: 9.33%"}, {"smiles": "CC(=O)Nc1ccc(Oc2c([N+](=O)[O-])cc([N+](=O)[O-])cc2[N+](=O)[O-])cc1", "inhibition": "inactive: -6.83%"}, {"smiles": "CC(=O)Nc1ccc([As](=O)(O)O)c(O)c1", "inhibition": "inactive: 8.16%"}, {"smiles": "COC(=O)C1(C)COP(=O)(NCc2ccccc2)OC1", "note": "(centres undefined)", "inhibition": "inactive: -9.41%"}, {"smiles": "N#C/C(=C\\c1ccc(N(CCBr)CCBr)cc1)C(N)=O", "inhibition": "inactive: -55.7%"}, {"smiles": "CC(=O)c1ccc(N2CC2c2ccncc2)cc1", "note": "(centres undefined)", "inhibition": "inactive: -16.3%"}, {"smiles": "C[C@@H]1C=CCP(=O)(Oc2ccccc2)O1", "note": "(some centres undefined)", "inhibition": "inactive: 0.77%"}, {"smiles": "C[C@H]1OP(=O)(Oc2ccccc2)C[C@@H]2O[C@@H]21", "note": "(some centres undefined)", "inhibition": "inactive: 0.67%"}, {"smiles": "Cc1ccccc1CN(C)C(=O)COC(=O)C(O)(c1ccccc1)c1ccccc1", "inhibition": "inactive: 5.41%"}, {"smiles": "CCc1cc(O)c([N+](=O)[O-])c(C)c1[N+](=O)[O-]", "inhibition": "inactive: -8.04%"}]}]}
